Pooled drug test results. Numbers come from NIAID ChemDB, via PubChem.

Shared fields: growth or infection tests; organism: Mycobacterium tuberculosis

A number after MIC or MFC names an inhibition level or a share of isolates. Percent inhibition refers to the dose given; in toxicity tests it is the harm to the cells. MIC bound comes from a single tested concentration. Blank or dashed fields: not listed here. ECn is the concentration giving n% inhibition of infection, replication or growth. Lines come from different laboratories, so protocols vary.

| structure | changes | method | cell line | measure | strain | dose | result |
|---|---|---|---|---|---|---|---|
| Cc1ccc(/C=N/N2CCN(c3cc4c(cc3F)c(=O)c(C(=O)O)cn4C3CC3)CC2)cc1 | - | fluorescence | - | MIC90 | H37Rv | - | 0.91 µM |
| COC(=O)C1=C(C)NC(Nc2cccc(SC(F)(F)F)c2)=NC1c1ccc(Cl)cc1 | - | agar | - | MIC | H37Rv | - | 4 µg/mL |
| NNC(=O)c1ccncc1 | - | - | - | MIC | H37RV #225 | - | <0.5 µg/mL |
| CCNc1[nH]c(=O)c(CNCc2cccc(C(F)(F)F)c2)cc1C(C)=N | - | broth dilution | - | MIC | H37Rv | - | >100 µM |
| Cc1ccc(N=Nc2c(-c3ccccc3)nn(C(=S)S)c2-c2ccccc2)cc1 | - | BACTEC | - | inhibition | H37Rv | 12.5 µg/mL | 70% |
| O=C(NNC1O[C@@H](CO)[C@H](O)[C@H](O)[C@@H]1O)c1ccncc1 | - | - | - | MIC90 | H37Rv (ATCC 27294) | - | 0.62 µg/mL |
| COc1c(O)cc2oc3cc(O)c(CCC(C)C)c(O)c3c(=O)c2c1CCC(C)C | MDR | resazurin | - | MIC | M5 | - | 1.56 µg/mL |
| CO[C@H]1/C=C/O[C@@]2(C)Oc3c(C)c(O)c4c(O)c(c(/C=N/N5C(C)CN(Cc6ccccc6)CC5C)c(O)c4c3C2=O)NC(=O)/C(C)=C\C=C\[C@H](C)[C@H](O)[C@@H](C)[C@@H](O)[C@@H](C)[C@H](OC(C)=O)[C@@H]1C | - | agar | - | EC50 | H37Rv | - | 4 µg/mL |
| CO[C@H]1/C=C/O[C@@]2(C)Oc3c(C)c(O)c4c(O)c(c(/C=N/N5CCN(C)CC5)c(O)c4c3C2=O)NC(=O)/C(C)=C\C=C\[C@H](C)[C@H](O)[C@@H](C)[C@@H](O)[C@@H](C)[C@H](OC(C)=O)[C@@H]1C | - | - | - | MIC50 | 10 strains | - | 0.06 µg/mL |
| O=C(O)c1cn(C2CC2)c2cc(N3CCN(/N=C/C4CCCCC4)CC3)c(F)cc2c1=O | - | fluorescence | - | MIC90 | H37Rv | - | 0.28 µM |
| CCC1OC(=O)C(C)C(OC2CC(C)(OC)C(O)C(C)O2)C(C)C(OC2OC(C)CC(N(C)C)C2OC(=O)CCC2CCCC2)C(C)(O)CC(C)C(=O)C(C)C(O)C1(C)O | - | BACTEC | - | MIC | H37Rv | - | ≥12.8 µg/mL |
| CC(C)=CCOc1c2ccoc2cc2oc(=O)ccc12.NNC(=O)c1ccncc1 | Isoniazid- and rifampicin-resistant | agar | - | MIC100 | H37Rv clinical isolate CRY3 | - | 3.12 µg/mL |
| CCn1cc(C(=O)OCC(=O)O[C@H]2[C@H](C)[C@H](O)[C@H](C)[C@@H](O)[C@@H](C)/C=C/C=C(/C)C(=O)Nc3c(/C=N/N4CCN(C)CC4)c(O)c4c5c(c(C)c(O)c4c3O)O[C@](C)(O/C=C/[C@H](OC)[C@H]2C)C5=O)c(=O)cc1N1CCN(C)CC1 | - | - | - | MIC | - | - | <0.2 µg/mL |
| Cc1ccc(Oc2ccc(N)c3cccnc23)c(C)c1 | - | - | - | MIC | H37Rv | - | 1 µg/mL |
| CCCOc1cc2oc3cc(O)c(CCC(C)C)c(O)c3c(=O)c2c(CCC(C)C)c1OC | MDR | resazurin | - | MIC | M6 | - | 3.12 µg/mL |
| CC1(C)O[C@H]2OC(/C=N/NC(=O)c3ccncc3)[C@H](O)[C@H]2O1 | - | - | - | MIC90 | H37Rv (ATCC 27294) | - | 0.62 µg/mL |
| O=C1CNCC(=O)N1 | - | BACTEC | - | MIC bound | H37Rv | - | >12.5 µg/mL |
| CCN(CC)CCOc1ccc(NC(=S)Nc2ccc(OCC(C)C)cc2)cc1 | - | - | - | MIC | H37RV #302 | - | 31.3 µg/mL |
| O=C1OCCC1n1cc(F)c(=O)[nH]c1=O | - | BACTEC | - | MIC bound | H37Rv | - | >12.5 µg/mL |
| COc1ccc(C2SCC(=O)N2NC2=Nc3ccccc3Sc3ccccc32)cc1 | - | broth dilution | - | MIC | H37Rv | - | 1000 µg/mL |
| Cc1cc(NN)c2cc(F)ccc2n1 | - | - | VERO | MIC | H37Rv | - | >12.5 µg/mL |
| Cc1ccc(S(=O)(=O)c2ccc([N+](=O)[O-])c3cccnc23)cc1 | - | - | - | MIC | H37Rv | - | 40 µg/mL |
| CC(=O)c1c(OC(=O)c2ccccc2)cc2oc3cc(OC(=O)c4ccccc4)c(CCC(C)C)c(O)c3c(=O)c2c1CCC(C)C | - | resazurin | - | MIC | H37Ra | - | 12.5 µg/mL |
| C=C(C)C1CC=C(C)/C(=N/NC(=O)c2cccnc2)C1 | KatG G285V | visual reading / absorbance | - | MIC | H37Rv | - | 50 µM |
| O=C(NNC1OC[C@H](O)[C@@H](O)[C@H]1O)c1ccncc1 | - | - | - | MIC90 | H37Rv (ATCC 27294) | - | 0.31 µg/mL |
| CNc1ccccc1C(=O)O[C@@H]1[C@@H](C)[C@]2(O)[C@@H]3C=C(C)C(=O)[C@H]3CC(C)=C[C@H]2[C@@H]2C(C)(C)[C@]12OC(=O)O | - | - | - | MIC | H37Ra | - | 50 µg/mL |
| COC(=O)C1=C(C)NC(Nc2cccc(C#N)c2)=NC1c1ccc(Cl)cc1 | - | agar | - | MIC | H37Rv | - | 8 µg/mL |
| COc1ccc(OC)c([C@@H]2[C@@H](Cl)C(=O)N2NC2=Nc3ccccc3Sc3ccccc32)c1 | - | broth dilution | - | MIC | H37Rv | - | 500 µg/mL |
| CCCCc1[nH]ccc2c(C)c3nc4ccccc4c3cc12 | - | resazurin | - | MIC | H37Rv | - | 1.56 µg/mL |
| Cc1cc(Oc2ccc(N)c3cccnc23)ccc1Cl | - | - | - | MIC | H37Rv | - | 0.1 µg/mL |
| Cc1ccc(C(F)(F)F)cc1CNCc1cc(C(=N)C(C)C)c(Nc2ccccc2)[nH]c1=O | - | broth dilution | - | MIC | H37Rv | - | 0.4 µM |
| O=[N+]([O-])c1ccc(Sc2ccccn2)c2ncccc12 | - | - | - | MIC | H37Rv | - | 40 µg/mL |
| COc1cc([C@@H]2[C@@H](Cl)C(=O)N2NC2=Nc3ccccc3Sc3ccccc32)cc(OC)c1OC | - | broth dilution | - | MIC | H37Rv | - | 250 µg/mL |
| Nc1nc2nc3c(nc2c(=O)[nH]1)CN(c1ccc(C(=O)NC(CCC(=O)O)C(=O)O)cc1)C3=O | - | BACTEC | - | inhibition | H37Rv | 12.8 µg/mL | 34% |
| CCCCOc1ccc(NC(=S)Nc2ccc(OCCN(CC)CC)cc2)cc1 | - | - | - | MIC | 76 | - | 62.5 µg/mL |
| COC(=O)C1=C(C)NC(Nc2cc(O)cc(Cl)c2)=NC1c1ccc(Cl)cc1 | - | agar | - | MIC | MDR-TB | - | 32 µg/mL |
| O=[N+]([O-])c1ccccc1C1SCc2nc3ccccc3n21 | - | resazurin | - | MIC bound | H37Rv | - | >6.25 µg/mL |
| O=[N+]([O-])c1ccc(Oc2ccc3ccccc3c2)c2ncccc12 | - | - | - | MIC | H37Rv | - | 1 µg/mL |
| COc1cccc2c(NN)cc(C)nc12 | - | - | VERO | MIC | H37Rv | - | >12.5 µg/mL |
| COC(=O)COC(=O)C1C(C(N)=O)N(CC(=O)OC)CCN1CC(=O)OC | - | BACTEC | - | inhibition | H37Rv | 12.8 µg/mL | 18% |
| CCCCC/C(CC1NC(=S)NC1=O)=N\NC(=O)c1ccncc1 | KatG S315T | visual reading / absorbance | - | MIC | - | - | 25 µM |
| COCCNC(=O)c1ccc2c(c1)[n+](=O)c(C(C)=O)c(C)n2[O-] | - | resazurin | - | inhibition | H37Rv | 6.25 µg/mL | 29% |
| O=C(O)c1cn(C2CC2)c2cc(N3CCN(/N=C/c4ccc(Br)cc4)CC3)c(F)cc2c1=O | - | fluorescence | - | MIC90 | H37Rv | - | 2.8 µM |
| Cc1ccccc1Sc1ccc(N)c2cccnc12 | - | - | - | MIC | H37Rv | - | 40 µg/mL |
| CC(C)(CO)NCC(C)(C)[N+](=O)[O-] | - | BACTEC | - | MIC bound | H37Rv | - | >12.8 µg/mL |
| C=CCOc1cc2oc3cc(O)c(CCC(C)C)c(O)c3c(=O)c2c(CCC(C)C)c1OC | - | resazurin | - | MIC | M11 | - | 3.12 µg/mL |
| O=C(O)c1cn(C2CC2)c2cc(N3CCN(/N=C/c4ccc(OC(F)(F)F)cc4)CC3)c(F)cc2c1=O | - | fluorescence | - | MIC90 | H37Rv | - | 3.4 µM |
| Cc1cccc(Cl)c1Oc1ccc([N+](=O)[O-])c2cccnc12 | - | - | - | MIC | H37Rv | - | 10 µg/mL |
| O=C(N/N=C(\c1nc2ccc([N+](=O)[O-])cc2[nH]c1=O)C(O)c1ccc([N+](=O)[O-])cc1)c1ccncc1 | KatG S315R | visual reading / absorbance | - | MIC | H37Rv | - | 50 µM |
| CCCCOc1ccc2nccc(N/N=C/c3ccc(OC)c4ccccc34)c2c1 | - | - | VERO | inhibition | H37Rv | 12.5 µg/mL | 100% |
| CN[C@@H]1[C@H](O[C@H]2[C@H](O[C@H]3[C@H](O)[C@@H](O)[C@H](N=C(N)N)[C@@H](O)[C@@H]3N=C(N)N)O[C@@H](C)[C@]2(O)C=O)O[C@@H](CO)[C@H](O)[C@H]1O | MDR | resazurin | - | MIC | M8 | - | >8 µg/mL |
| S=C([S-])N(Cc1ccccc1)CN(C(=S)[S-])c1ccccc1.[Na+].[Na+] | - | BACTEC | - | inhibition | H37Rv | 12.5 µg/mL | 27% |
| COc1ccc2c(N/N=C/c3ccc(OC)c4ccccc34)cc(C)nc2c1 | - | - | VERO | inhibition | H37Rv | 12.5 µg/mL | 99% |
| O=C(NN1CCN(c2cc3c(cc2F)c(=O)c(C(=O)O)cn3C2CC2)CC1)c1ccc(Cl)cc1 | - | fluorescence | - | MIC90 | H37Rv | - | >50 µM |
| CC1(C)CCc2c(c3ccccc3c3nc(-c4cccc(C#N)c4)oc23)O1 | - | resazurin | - | MIC | ATCC 27294 | - | 35.2 µg/mL |
| Cc1ccnc(NS(=O)(=O)c2ccc(N=Nc3c(O)n(-c4ccccc4)n(-c4ccccc4)c3=O)cc2)n1 | - | BACTEC | - | inhibition | H37Rv | 12.8 µg/mL | 30% |
| CC(=O)N[C@H]1C(NNC(=O)c2ccncc2)O[C@@H](CO)[C@@H](O)[C@@H]1O | - | - | - | MIC90 | H37Rv (ATCC 27294) | - | >100 µg/mL |
| CC(=O)NNc1nc(C)cc(=O)[nH]1 | - | BACTEC | - | inhibition | H37Rv | 12.5 µg/mL | 22% |
| O=C(O)c1cn(C2CC2)c2cc(N3CCN(/N=C/c4cccc(F)c4)CC3)c(F)cc2c1=O | - | fluorescence | - | MIC90 | H37Rv | - | 1.45 µM |
| CSC(=S)N/N=C(/C)c1cccs1 | - | - | - | MIC | TAC-R | - | 0.4 µg/mL |
| CO[C@H]1/C=C/O[C@@]2(C)Oc3c(C)c(O)c4c(O)c(c(/C=N/N5CCN(C)CC5)c(O)c4c3C2=O)NC(=O)/C(C)=C\C=C\[C@H](C)[C@H](O)[C@@H](C)[C@@H](O)[C@@H](C)[C@H](OC(C)=O)[C@@H]1C | - | resazurin | - | MIC | M22 | - | >2 µg/mL |
| CC1=NN(C(=O)c2ccccc2)C(=O)C1N=Nc1ccccc1C(=O)O | - | BACTEC | - | MIC bound | H37Rv | - | >12.5 µg/mL |
| COc1cc2oc3cc(O)c(CCC(C)C)c(O)c3c(=O)c2c(CCC(C)C)c1OC | - | resazurin | - | MIC | M-4 | - | 1.56 µg/mL |
| CC1(C)CCc2c(c3ccccc3c3nc(-c4ccccc4C#N)oc23)O1 | - | resazurin | - | MIC | ATCC 35338 | - | 17.6 µg/mL |
| O=[N+]([O-])c1ccc(SC2NC=CS2)c2ncccc12 | - | - | - | MIC | H37Rv | - | 10 µg/mL |
| CCOc1cc2oc3cc(O)c(CCC(C)C)c(O)c3c(=O)c2c(CCC(C)C)c1OC | - | resazurin | - | MIC | M5 | - | 1.56 µg/mL |
| CCCCCCCCCCC[C@@H](C[C@@H]1OC(=O)[C@H]1CCCCCC)OC(=O)[C@H](CC(C)C)NC=O | - | broth dilution / agar | - | MIC | H37Rv | - | 5 µg/mL |
| O=C(NCCN1CCOCC1)c1cn2c(ccc3sc4ccccc4c(=O)c32)n1 | - | BACTEC | - | MIC bound | H37Rv | - | >12.5 µg/mL |
| O=C(NN1CCN(c2cc3c(cc2F)c(=O)c(C(=O)O)cn3C2CC2)CC1)c1cccc2c1B(O)OC2 | - | fluorescence | - | MIC90 | H37Rv | - | >50 µM |
| O=C(NNC1OC[C@H](O)[C@H](O)[C@@H]1O)c1ccncc1 | - | - | - | MIC90 | H37Rv (ATCC 27294) | - | 3.12 µg/mL |
| O=C(O)CCCCCCCCCCC1C=CCC1 | - | BACTEC | - | MIC bound | H37Rv | - | >12.5 µg/mL |
| COC(=O)C1=C(C)NC(Nc2ccc([N+](=O)[O-])cc2O)=NC1c1ccc(Cl)cc1 | - | agar | - | MIC | MDR-TB | - | 32 µg/mL |
| CCN1CC2(COC(=O)c3ccccc3N3C(=O)C[C@H](C)C3=O)CC[C@@H](OC)C34C5CC6[C@H](OC)C5C5(C[C@@H]6OC)OCOC5(C13)[C@H](OC)C24 | - | BACTEC | - | MIC bound | H37Rv | - | >12.5 µg/mL |
| CC1(C)CCc2c(c3ccccc3c3nc(-c4ccc(C#N)cc4)oc23)O1 | - | resazurin | - | MIC | ATCC 35822 | - | 8.8 µg/mL |
| COc1c(O)c(O)c2c(c1O)C(=O)c1cc(C)cc(O)c1C2=O | - | BACTEC | - | inhibition | H37Rv | 12.5 µg/mL | 4% |
| NNC(=O)c1ccncc1 | KatG *741R | visual reading / absorbance | - | MIC | H37Rv | - | 0.1 µM |
| Cc1ccc(C2=NNc3n[nH]c(=S)n3N2)cc1 | - | BACTEC | - | MIC bound | H37Rv | - | >12.5 µg/mL |
| Nc1ccc(Sc2ccccn2)c2ncccc12 | - | - | - | MIC | H37Rv | - | 100 µg/mL |